# Library screen at single concentrations

The values are deposited in ChEMBL (CHEMBL3988442, “University of Dundee, Small-Polar-MMV Screening Library” (2021)).

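Phenotypic screen: M. tuberculosis growth, cholesterol and DPPC medium, 4 days; the read-out is not stated. Concentration: 500 µM. Higher reads as more growth inhibition (inferred: compounds with an IC50 in retests scored well above the rest). Size under these conditions: about 18,000 compounds, about 900 of them at 50% or above in at least one test.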

Each number is a percent effect as filed. The controls that fix the scale are not given in the record; negative values are as filed. This is part of a subset picked to be rich in strong results.

structure	Percent Effect
CCCNC(=O)Nc1ccccn1	10.56%
COC(=O)CNC(=O)c1ccc(C)c(-n2cccc2)c1	39.11%
COCC(=O)NC(C)c1ccc(OC(C)C)c(OC)c1 (stereo not drawn)	7.605%
CN(CCOCc1ccccc1)C(=O)c1cc[nH]n1	11.9%
COc1cccc(CNS(=O)(=O)Cc2ccon2)c1	-4.469%
CCN(CC1CCOC1)C(=O)c1cc(I)c[nH]1 (stereo not drawn)	59.56%
CC(C)N1CCC(NC(=O)c2c(Br)cnn2C)CC1	16.49%
NS(=O)(=O)N1CCN(CCCc2cccc(F)c2)CC1	11.19%
COc1cccc(CNCCCN2CCCC2=O)c1	3.106%
COc1cccc(OCC(=O)NCC2CCCO2)c1 (stereo not drawn)	48.81%
COCCNc1nnc(SCc2ccc(Br)cn2)s1	57.75%
NCC(C(=O)N1CCOCC1)c1ccccc1 (stereo not drawn)	-6.43%
CN(C)S(=O)(=O)Nc1ccccn1	8.151%
CN(C)C(=O)NCCNc1nc(-c2ccccc2)ns1	-12.06%
CCS(=O)(=O)N1CC(C(=O)N(C)C)Oc2ccccc21 (stereo not drawn)	2.038%
O=S(=O)(CCN1CCN(CCO)CC1)C(F)(F)F	32.8%
N[C@@H]1CCN(Cc2cc(F)cc(C(F)(F)F)c2)C[C@H]1O	41.99%
CCC1CN(CCn2cccn2)CCN1 (stereo not drawn)	25.18%
O=C(CC1Sc2ccc(Cl)cc2NC1=O)OCCO (stereo not drawn)	108.5%
COc1ccc(F)cc1C(=O)OCC(=O)NC1CC1	64.37%
CC(C)N1CCN(CCCSc2nnnn2C)CC1	-1.123%
Cc1ncccc1NC(=O)c1cccc(S(C)(=O)=O)c1	1.73%
CC(=Cc1ccccc1)CN1CCN(S(N)(=O)=O)CC1	38.34%
CCO[C@H]1CN(Cc2snnc2C(C)C)C[C@@H]1O	1.784%
O=C(Nc1cccnc1N1CCC(CO)CC1)C1CC1	34.4%
CCn1nc(C)cc1C(=O)NCCCc1ncc[nH]1	-3.099%
CCc1cccnc1C(C)=O	-11.24%
NC(CO)Cc1ccncc1 (stereo not drawn)	-18.77%
O=C(CC1CCCC1)Nc1ccc2c(c1)NC(=O)CO2	-14.47%
CCCNC(=O)c1ccc(C(=O)OC)cc1	35.26%
NC(=O)CN1CCN(c2cccc(Cl)c2)CC1	7.368%
COCC(=O)NCCc1cc(Cl)c2c(c1)OCCO2	66.45%
COc1cc(OC)cc(C(=O)NCc2ccnn2C)c1	-23.24%
CCc1cnc(N2CCNCC2)s1	-3.469%
N[C@@H]1C[C@H]1c1ccc(F)c(F)c1	24.27%
CCC(=O)NC1=NCCS1	-14.82%
COC(=O)CC(NC(=O)c1ccon1)C1CC1 (stereo not drawn)	-12.75%
C=C(C)CN1CCN(c2ccccn2)CC1	72.67%
Cc1nn(CCNC(=O)C(C)NS(C)(=O)=O)c(C)c1C (stereo not drawn)	1.308%
COc1cccc(CC(=O)N(C)Cc2cnccn2)c1	-4.411%
CS(=O)(=O)N(CC(=O)N1CCCC1)c1ccc(Cl)cc1	26.77%
CSc1ccncc1N	0.5444%
CC(C(=O)Nc1ccc(C#N)cc1)N1CCC(O)CC1 (stereo not drawn)	13.39%
Cc1ccc(F)c(NC(=O)C2CCCN2S(C)(=O)=O)c1 (stereo not drawn)	-1.695%
CN(CC(N)=O)Cc1ccccc1N1CCCC1	43.67%
CC1=NOC(CNS(=O)(=O)c2cccc(C)c2)C1 (stereo not drawn)	-19.99%
Cn1c(=O)[nH]c2cc(C(=O)N3CCCCCC3)ccc21	11.04%
CNC(=O)NC(=O)CCCN(C)Cc1ccsc1	-11.01%
O=C(NCCC1=CCCCC1)NC1CCS(=O)(=O)C1 (stereo not drawn)	4.535%
Cc1cc(NC(=O)CN2CCC(CO)CC2)n(C)n1	4.13%
COc1ccc(C(N)CO)c2ccccc12 (stereo not drawn)	55.94%
COCCCOc1ccc(C)cc1S(=O)(=O)N(C)C	10.76%
NCCOc1ccc2c(c1)OCO2	12.2%
O=C(Nc1ccc(Cl)cn1)c1ccncc1	34.75%
Cc1nn(CC(=O)N[C@@H]2CCNC[C@H]2O)c(C)c1C	-17.26%
CN(C)S(=O)(=O)N1CCCC1COc1ccccc1 (stereo not drawn)	93.42%
CN(C)Cc1cccc(CNc2ncccc2C#N)c1	32.86%
COc1ccc(C(C)CO)cc1 (stereo not drawn)	55.12%
CSCC(=O)NCCc1noc(C(F)(F)F)n1	6.314%
COc1cccc(N2CCNCC2C)c1 (stereo not drawn)	5.558%
CC(C)(N)c1nc(C2CC2)cc(=O)[nH]1	-10.09%
CCC(COC)NCc1nnc2n1CCCC2 (stereo not drawn)	-2.357%
Cc1ccc(CNCCOc2ccccn2)o1	57.79%
COc1ccc(NC(=O)COc2ccccc2F)cn1	70.49%
O=C(CN1CCC(C(F)(F)F)CC1)N1CCNC1=O	-3.363%
NC(=O)c1ccsc1NC(=O)CCN1CCCCC1	35.99%
CN1CCN(C(=O)Cc2cn(C)c3ccccc23)CC1	9.289%
CC(C(=O)NC(N)=O)N(C)Cc1ccc(Br)o1 (stereo not drawn)	-9.295%
CC(=O)c1ccc(S(C)(=O)=O)c(N(C)CCC2CC2)c1	-24.16%
CC(C)C(NC(=O)CN1CCCC1=O)c1ccccn1 (stereo not drawn)	-16.51%
Cc1csc(C(C)CNC(=O)Nc2ncnn2C)n1 (stereo not drawn)	-3.63%
Cc1nc2c(cc1C(=O)NCC1CC1)c(C)nn2C	-12.36%